Pooled drug test results. Numbers come from NIAID ChemDB, via PubChem.

Common to all: growth or infection tests; agent: HIV-1; cell line: MT-4; measure: EC50

Blank or dashed fields: not listed here. ECn: concentration that inhibits the pathogen or its effect by n%. Neighbouring rows are from separate reports.

| compound | strain or isolate | mutations | read by | value |
|---|---|---|---|---|
| CCCCCCCC/C=C\CCCCCCCC(=O)O[C@@H]1Cc2ccccc2[C@@H]1NC(=O)[C@H](Cc1ccccc1)C[C@H](O)CN1CCN(Cc2cccnc2)C[C@H]1C(=O)NC(C)(C)C | IIIB |  | cytopathic effect / MTT | 0.25 µM |
| CC1(C)C=Cc2c(ccc(-c3coc4cc(O)ccc4c3=O)c2O)O1 | IIIB |  | MTT | >100 µg/mL |
| Cc1cc(COc2cncc(C#N)c2)cc(C)c1Oc1ccnc(Nc2ccc(C#N)cc2)n1 |  |  | MTT | 0.2652 µM |
| CCCN(C)C(=O)Oc1nsnc1-c1c(Cl)ccc(O)c1Cl | IIIB |  | cytopathic effect / MTT | 0.16 µM |
| CC(C)(C)NC(=O)[C@@H]1C[C@@H]2CCCC[C@@H]2CN1C[C@@H](OC(=O)CCCCOc1ccc(C[C@H](N)C(=O)O)cc1)[C@H](Cc1ccccc1)NC(=O)[C@H](CC(N)=O)NC(=O)c1ccc2ccccc2n1 | IIIB |  | cytopathic effect / MTT | 0.16 µM |
| CCc1cc(NCc2nc3c(Cl)ccc(Cl)c3o2)c(=O)[nH]c1C | RUTZ |  | p24 | <0.1 µM |
| O=C1Nc2c(C(F)(F)F)ccnc2N(C2CC2)c2ncccc21 | IIIB |  | cytopathic effect / MTT | >200 µM |
| Cc1cn([C@H]2C[C@H](N=[N+]=[N-])[C@@H](CO)O2)c(=O)[nH]c1=O | IIIB |  | cytopathic effect / MTT | 0.0022 µM |
| CC(C)(C)NC(=O)[C@@H]1C[C@@H]2CCCC[C@@H]2CN1C[C@@H](OC(=O)[C@H](Cc1ccccc1)NC(=O)OC(C)(C)C)[C@H](Cc1ccccc1)NC(=O)[C@H](CC(N)=O)NC(=O)c1ccc2ccccc2n1 | IIIB |  | cytopathic effect / MTT | 0.197 µM |
| O=c1cc(-c2ccc(O)cc2O)oc2cc(O)cc(O)c12 | IIIB |  | cytopathic effect / MTT | >20 µg/mL |
| O=C(OC[C@H]1OC(=O)c2ccccc21)c1ccccc1 |  |  |  | >10 µM |
| CCc1cc(NCc2nc3c(C)ccc(C)c3o2)c(=O)[nH]c1C | WMJ-2 |  | p24 | <0.1 µM |
| COc1c(CCC(C)C)c(O)cc2c1C[C@H](c1ccc(O)c(CCC(C)C)c1O)CO2 | IIIB |  | MTT | >100 µg/mL |
| CC(=O)c1ccc(C)cc1NC(C(N)=O)c1c(Cl)cccc1Cl | clinical isolate A018A AZT-sensitive |  | p24 | 0.031 µM |
| CC1(C)[C@@H](O[C@H]2O[C@H](C(=O)O)[C@@H](O)[C@H](O)[C@H]2O[C@@H]2O[C@H](C(=O)O)[C@@H](O)[C@H](O)[C@H]2O)CC[C@]2(C)[C@H]3C(=O)C=C4[C@@H]5C[C@@](C)(C(=O)O)CC[C@]5(C)CC[C@@]4(C)[C@]3(C)CC[C@@H]12 |  |  | RT activity | 178 µM |
| CC(C)(C)OC(=O)N1CCCN(C(=O)OC(C)(C)C)CCN(C(=O)OC(C)(C)C)CCCN(CCCCC(=O)OC[C@@H]2CC[C@H](n3cnc4c(=O)[nH]cnc43)O2)CC1 |  |  | syncytia | 10 µM |
| Cc1ccnc2c1NC(=O)c1cccnc1N2C1CC1 |  | RT-L74V L100I |  | <0.8 µM |
| CCOC(=O)CNc1nc2c(o1)c(C)nn2-c1ccccc1 |  |  | cytopathic effect / MTT | >20 µM |
| CC1=CC2c3c(O)cc(-c4cc5ccc(O)cc5o4)cc3OC3(c4ccc(O)cc4O)Oc4cc(O)ccc4C(C1)C23 | IIIB |  | MTT | >4 µg/mL |
| CC(C)=CCN1Cc2cccc3[nH]c(=S)n(c23)C[C@@H]1C | rHXB2 |  | p24 | <0.1 µM |
| CC(C)(C)OC(=O)N1CCCN(C(=O)OC(C)(C)C)CCN(C(=O)OC(C)(C)C)CCCN(CCCCC(=O)Nc2ccn([C@H]3CS[C@@H](COC(=O)CCCCN4CCCN(C(=O)OC(C)(C)C)CCN(C(=O)OC(C)(C)C)CCCN(C(=O)OC(C)(C)C)CC4)O3)c(=O)n2)CC1 |  |  | syncytia | 1 µM |
| Cc1cn([C@@H]2C[C@@H](N=[N+]=[N-])[C@H](COC(=O)NCCCCNC(=O)OC[C@H]3O[C@@H](n4cc(C)c(=O)[nH]c4=O)C[C@@H]3N=[N+]=[N-])O2)c(=O)[nH]c1=O | IIIB |  | cytopathic effect / MTT | 2.84 µM |
| CC(C)=CCc1c(O)cc(CCc2ccc(O)c(O)c2)c(CC=C(C)C)c1O | IIIB |  | cytopathic effect / MTT | >4 µg/mL |
| CNC(=O)[C@@H](NC(=O)[C@H](OCc1ccccc1)[C@H](O)[C@@H](O)[C@@H](OCc1ccccc1)C(=O)N[C@H]1c2ccccc2C[C@H]1O)C(C)C |  |  | cytopathic effect / XTT | 0.1 µM |
| CCCCCCCC/C=C\CCCCCCCC(=O)OCC(COC(=O)CCCCCCC/C=C\CCCCCCCC)OC(=O)CCC(=O)O[C@H](CN1C[C@H]2CCCC[C@H]2C[C@H]1C(=O)NC(C)(C)C)[C@H](Cc1ccccc1)NC(=O)[C@H](CC(N)=O)NC(=O)c1ccc2ccccc2n1 | IIIB |  | cytopathic effect / MTT | 1.7 µM |
| CC(C)=NOC(=O)OC[C@H]1O[C@@H](n2cc(C)c(=O)[nH]c2=O)C[C@@H]1N=[N+]=[N-] | IIIB |  | cytopathic effect / MTT | 0.029 µM |
| Cc1cn([C@H]2C[C@H](N=[N+]=[N-])[C@@H](CO)O2)c(=O)[nH]c1=O | IIIB |  | RT activity | 0.0098 µM |
| O=C(N[C@H]1c2ccccc2C[C@H]1O)[C@H](OCc1ccccc1)[C@H](O)[C@@H](O)[C@@H](OCc1ccccc1)C(=O)N[C@H]1c2ccccc2C[C@H]1O |  |  | cytopathic effect / XTT | 0.1 µM |
| O=c1c(O)c(-c2ccc(O)cc2O)oc2cc(O)cc(O)c12 | IIIB |  | MTT | >500 µg/mL |
| CC(C)(C)NC(=O)[C@@H]1C[C@@H]2CCCC[C@@H]2CN1C[C@@H](OC(=O)COc1ccc(C[C@H](N)C(=O)O)cc1)[C@H](Cc1ccccc1)NC(=O)[C@H](CC(N)=O)NC(=O)c1ccc2ccccc2n1 | IIIB |  | cytopathic effect / MTT | 0.085 µM |
| C=COC(=O)OC[C@H]1O[C@@H](n2cc(C)c(=O)[nH]c2=O)C[C@@H]1N=[N+]=[N-] | IIIB |  | cytopathic effect / MTT | 0.009 µM |
| CC(C)(C)OC(=O)N1CCCN(C(=O)OC(C)(C)C)CCN(C(=O)OC(C)(C)C)CCCN(C(=O)CCCC(=O)OC[C@@H]2CC[C@H](n3ccc(N)nc3=O)O2)CC1 |  |  | syncytia | 5 µM |
| C[C@H]1[C@H](CO)C=C[C@@H]1n1ccc(N)nc1=O |  |  |  | >100 µg/mL |
| O=C(/C=C/c1cn([C@H]2C=C[C@@H](CO)O2)c(=O)[nH]c1=O)NCCCCCCNC(=O)C(F)(F)F | IIIB |  | RT activity | >100 µM |
| CCCN(C)C(=O)Oc1nsnc1-c1c(Cl)ccc(N)c1Cl | IIIB MKC-442-resistant |  | p24 | 0.765 µM |
| CCNc1nc2c(o1)c(C)nn2-c1ccccc1 |  |  | cytopathic effect / MTT | >29 µM |
| CC(C)=CCC/C(C)=C/Cc1cc([C@H]2Oc3c(CC=C(C)C)c(O)cc(O)c3C(=O)[C@@H]2O)ccc1O | IIIB |  | MTT | >10 µg/mL |
| CCCCCCCCCCCCCCCC(=O)OCC(COC(=O)CCCCCCCCCCCCCCC)OC(=O)CCC(=O)O[C@H](CN1C[C@H]2CCCC[C@H]2C[C@H]1C(=O)NC(C)(C)C)[C@H](Cc1ccccc1)NC(=O)[C@H](CC(N)=O)NC(=O)c1ccc2ccccc2n1 | IIIB |  | cytopathic effect / MTT | 3.5 µM |
| CC(C)(C)OC(=O)N1CCCN(C(=O)OC(C)(C)C)CCN(C(=O)OC(C)(C)C)CCCN(C(=O)CCCC(=O)OC[C@H]2O[C@@H](n3ccc(N)nc3=O)CS2)CC1 |  |  | syncytia | 5 µM |
| COc1ccccc1CNC(=O)[C@H](OCc1ccccc1)[C@H](O)[C@@H](O)[C@@H](OCc1ccccc1)C(=O)N[C@H]1c2ccccc2C[C@H]1O |  |  | cytopathic effect / XTT | 4 µM |
| O=C1CC(c2ccc(O)cc2)Oc2cc(O)ccc21 | IIIB |  | MTT | >100 µg/mL |
| Nc1ccn([C@H]2CC[C@@H](CO)O2)c(=O)n1 | IIIB |  | MTT | 0.37 µg/mL |
| O=c1[nH]cnc2c1ncn2[C@H]1CC[C@@H](CO)O1 | rHXB2 |  | p24 | <25 µM |
| Cc1nn(-c2ccccc2)c2c1nnn2[C@@H]1O[C@H](CO)[C@@H](O)[C@H]1O |  |  | cytopathic effect / MTT | >145 µM |
| Nc1ncnc2c1ncn2[C@H]1C=C[C@@H](OCP(=O)(O)O)O1 |  |  |  | 4.3 µM |
| S=c1[nH]c2cc(Cl)cc3c2n1CCN1CCCCC31 | IIIB |  | cytopathic effect / MTT | >200 µM |

For reference, 6 entries again:

compound	strain or isolate	mutations	read by	value
CCCCCCCC/C=C\CCCCCCCC(=O)O[C@@H]1Cc2ccccc2[C@@H]1NC(=O)[C@H](Cc1ccccc1)C[C@H](O)CN1CCN(Cc2cccnc2)C[C@H]1C(=O)NC(C)(C)C	IIIB		cytopathic effect / MTT	0.25 µM
Nc1ncnc2c1ncn2[C@H]1C=C[C@@H](OCP(=O)(O)O)O1				4.3 µM
CC1=CC2c3c(O)cc(-c4cc5ccc(O)cc5o4)cc3OC3(c4ccc(O)cc4O)Oc4cc(O)ccc4C(C1)C23	IIIB		MTT	>4 µg/mL
CC(C)=CCN1Cc2cccc3[nH]c(=S)n(c23)C[C@@H]1C	rHXB2		p24	<0.1 µM
COc1ccccc1CNC(=O)[C@H](OCc1ccccc1)[C@H](O)[C@@H](O)[C@@H](OCc1ccccc1)C(=O)N[C@H]1c2ccccc2C[C@H]1O			cytopathic effect / XTT	4 µM
CC(=O)c1ccc(C)cc1NC(C(N)=O)c1c(Cl)cccc1Cl	clinical isolate A018A AZT-sensitive		p24	0.031 µM